Results as given in publication PMC7676316, “Complete Mapping of Mutations to the SARS-CoV-2 Spike Receptor-Binding Domain that Escape Antibody Recognition” (Cell Host & Microbe, 2021).

Columns and labels:
[1] = target: LYRa11 RBD, unmutated, yeast-displayed (bat SARS-like coronavirus LYRa11 …, UniProt A0A023PUW9, strain)
[2] = target: WIV16 RBD, unmutated, yeast-displayed (SARS-like coronavirus WIV16 (GenBank …, strain))
[3] = target: RaTG13 RBD, unmutated, yeast-displayed (bat coronavirus RaTG13 (GenBank …, UniProt A0ABF7PLN6, strain))
[4] = target: GD-Pangolin RBD, unmutated, yeast-displayed (strain)

Measured: binding result

B1: COV2-2082 (human IgG) (antibody, V domains shown)
VH: EVQLVESGGGVVRPGGSLRLSCAASGFIFDDYDMTWVRQAPGKGLEWVSGISWNGGNTGYADSVKGRFTISRDNAKNSLYLQMNSLRAEDTALYHCAVIMSPIPRYSGYDWAGGAFDIWGQGTMVTVSS
VL: SSELTQDPAVSVALGQTVRITCQGDSLRSYYASWYQQKPGQVPILVIYDKNNRPSGIPDRFSGSSSGNTASLTITGAQAEDEADYYCNSRDSSGNAVVFGGGTKLTVL
binds: all assays above
